Drawing on ChEMBL document CHEMBL1129642, “Design, synthesis, and evaluation of 2 beta-alkenyl penam sulfone acids as inhibitors of beta-lactamases” (J Med Chem, 1996), this text covers IC50 for one molecule.

Sequences of proteins named here, by UniProt entry; tags and fusion partners are left off. Residues count along the entry.
UniProt Q53729, 1-716: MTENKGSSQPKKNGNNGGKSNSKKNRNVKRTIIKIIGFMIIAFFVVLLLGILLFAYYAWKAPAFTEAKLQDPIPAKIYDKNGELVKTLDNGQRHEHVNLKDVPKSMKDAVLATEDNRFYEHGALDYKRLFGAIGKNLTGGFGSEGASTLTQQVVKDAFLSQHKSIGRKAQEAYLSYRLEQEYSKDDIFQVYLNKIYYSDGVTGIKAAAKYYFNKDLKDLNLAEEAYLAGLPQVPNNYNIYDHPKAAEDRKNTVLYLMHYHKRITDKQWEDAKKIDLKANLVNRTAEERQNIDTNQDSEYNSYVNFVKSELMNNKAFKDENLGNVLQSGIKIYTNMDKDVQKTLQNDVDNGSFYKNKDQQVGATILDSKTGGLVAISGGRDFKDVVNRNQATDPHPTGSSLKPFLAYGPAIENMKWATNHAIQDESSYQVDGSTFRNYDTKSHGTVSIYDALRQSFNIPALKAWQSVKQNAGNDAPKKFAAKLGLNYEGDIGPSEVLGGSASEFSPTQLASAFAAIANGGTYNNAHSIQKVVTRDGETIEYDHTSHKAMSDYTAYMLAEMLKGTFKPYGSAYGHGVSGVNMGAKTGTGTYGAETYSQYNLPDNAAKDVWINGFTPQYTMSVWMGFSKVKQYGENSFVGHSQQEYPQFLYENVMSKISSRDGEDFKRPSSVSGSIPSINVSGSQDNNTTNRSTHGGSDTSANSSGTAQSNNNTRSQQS
UniProt P05364, whole entry: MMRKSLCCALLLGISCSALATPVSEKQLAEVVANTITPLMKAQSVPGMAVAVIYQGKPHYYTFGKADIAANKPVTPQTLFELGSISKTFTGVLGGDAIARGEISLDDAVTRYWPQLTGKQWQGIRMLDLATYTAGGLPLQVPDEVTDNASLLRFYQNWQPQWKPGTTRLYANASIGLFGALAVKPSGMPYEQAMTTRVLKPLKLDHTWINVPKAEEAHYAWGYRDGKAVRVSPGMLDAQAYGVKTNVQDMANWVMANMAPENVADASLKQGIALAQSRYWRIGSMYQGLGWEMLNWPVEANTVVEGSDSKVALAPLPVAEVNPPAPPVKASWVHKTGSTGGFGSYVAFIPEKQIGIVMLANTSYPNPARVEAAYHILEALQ

Assay [1] has as its target Penicillin-binding protein 2 (Staphylococcus aureus, UniProt Q53729). In words: Compound was tested for inhibition of 604 (Cephalosporin resistant mutants of Penicillin-binding protein 2) from Streptococcus pneumoniae.
In assay [2] the target is Beta-lactamase (Enterobacter cloacae, UniProt P05364). In words: Compound was tested for inhibition of Beta-lactamase from Enterobacter cloacae 908R.

Regarding `C[C@]1(C=CC#N)[C@H](C(=O)O)N2C(=O)C[C@H]2S1(=O)=O` [Ro-481220], the IC50 is 280 µM in assay [1] and 0.41 µM in assay [2].
